Assay results from article PMC8266642.
The exact form of at least one protein or probe is not confirmed. Weaker means in comparison with the reference protein, sequence or condition of that experiment. At least one verdict was read from the data and is not stated in words by the source. Tags and fusion partners may be left off the protein sequences shown.

Biological target: T1, StrepHP1021 (HP1021) (Helicobacter pylori 26695) (UniProt O25665)
T1 sequence (looked up, limits assumed): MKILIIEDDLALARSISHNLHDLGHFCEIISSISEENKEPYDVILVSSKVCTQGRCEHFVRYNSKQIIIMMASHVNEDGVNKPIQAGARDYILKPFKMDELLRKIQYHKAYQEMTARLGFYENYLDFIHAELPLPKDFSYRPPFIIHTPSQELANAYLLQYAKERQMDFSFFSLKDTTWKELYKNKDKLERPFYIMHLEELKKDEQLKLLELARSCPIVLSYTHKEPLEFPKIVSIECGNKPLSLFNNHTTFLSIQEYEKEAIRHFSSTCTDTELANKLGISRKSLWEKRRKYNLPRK
Assay: EMSA
Details: EMSA: 50 mM Tris-HCl pH 8.0, 100 mM NaCl, 0.2% Triton X-100, 5 nM DNA, 37 C 20 min, 4% PAGE in 0.5x TBE or TB at 20-25 C, recombinant protein, protein details: N-terminal Strep-tag II (WSHPQFEK), label: 5' FAM (P17), probe letters rebuilt from the primers and the genome

Sequence | binding result (Zn2+) | binding result (air-oxidized (vs TCEP-reduced)) | binding result
ATGATATTTATATGATATTTTTGGGTAATTTAAGATGAATATCGGTAGCGTTTTGAATAAATTTGTTACTACTTTTCACTTTATTACGCCAAATTTTCCCTTATTACAAACAACTTTGAAATAAATGATTTCCATTTAAAAATCAGCCTTATACTTCTAATAGGTTGCCTTGAGCAACACTTTAATACAAGGAGTCTAAATGAAAGACGCAAATTCGAAGCTATTCTTACTCC (double strand) [phyuA] | binds more weakly | binds more weakly | –
GGAGTAAGAATAGCTTCGAATGAATAGCGCTGTCAAACTCCCCAGCGCCAGAGTGTTAGAAGTTTTTTGCATACCTTCTCCTTTTTTATTGAGTTGATATAATAATAATGATATTACAATTATTTTAAGATAATAATCTGTCTAAATAAAGAAAAAGAGGCATGAAATGAGTAAAAAATGCAAAGCCCCTTAAAAAGAGCTTAACGAAAGATAAATACAGAAACAGAAATGATGCAGAGAATGATAATGCCTGAATTGAGTGCTTTGAAGTCTTTTTGAACCAATTTGATGATACTATAAGACAAAAAGCCAAAGGCTAAGCCATCGGCAATGGAGAAGGTTAAGGGCATCATCACCACGGTTAAA (double strand) [pgluP] | binds more weakly | binds more weakly | binds
TGCAATAAAACAGGACCTCTAGGGCCGGCCGTAATCACATTGTTGTCATCCCAAACGGGAGCGCCAAAAGCAGTGGTTTGTTTCACATCTTTATTAACCATCTTTTTTCCTTTTATGATCTTAAATCTTCGTAATATGACACTAAGCCGATTACTTGTGGTGATTATCACATAATTTGTTATACAAAGACTAACAAGATTCAATTTCCTTAAAAAATCCTTTTTTTAAGAATGAAAAACCCCCTTAAGTATTTCTATTCGTAACAATTAATGAAAATAAGAAAGATTAAAAACAAAATTTTATTTTTAATCTGGTTTTAATAATAATTATTCGAAGCTATTCTTACTCC (double strand) [pkatA] | binds more weakly | binds more weakly | binds
